A mixed list of measured activities; the numbers were collected in NIAID ChemDB.

Shared fields: growth or infection tests

Percent inhibition refers to the dose given; in toxicity tests it is the harm to the cells. A number after MIC or MFC names an inhibition level or a share of isolates. An empty or dashed field is not shown. Rows are shuffled and stem from different studies.

compound | organism | strain or isolate | read by | setting | endpoint | dose | value
CO[C@H]1/C=C/O[C@@]2(C)Oc3c(C)c(O)c4c(O)c(c(/C=N/N5CCN(C)CC5)c(O)c4c3C2=O)NC(=O)/C(C)=C\C=C\[C@H](C)[C@H](O)[C@@H](C)[C@@H](O)[C@@H](C)[C@H](OC(C)=O)[C@@H]1C | Mycobacterium avium | Isolate 90-1110 |  |  | MIC |  | 30 µg/mL
C[C@H]1c2cccc(O)c2C(O)=C2C(=O)[C@]3(O)C(O)=C(C(N)=O)C(=O)[C@@H](N(C)C)[C@@H]3[C@@H](O)[C@@H]21 | Mycobacterium smegmatis | 6 strains |  |  | Median MIC |  | 0.06 µg/mL
Cc1c(N2C[C@@H](N)[C@H](C(F)(F)F)C2)c(F)cn2c(=O)c(C(=O)O)cc(C3CC3)c12.Cl | Mycobacterium smegmatis | ATCC114 |  |  | MIC |  | 0.2 µg/mL
CCC1CN(c2c(F)cc3c(=O)c(C(=O)O)cn(C4CC4)c3c2OC)CCN1 | Mycobacterium bovis | BCG-KD1295 (WILD TYPE) |  |  | MIC |  | 0.048 µg/mL
CO[C@H]1/C=C/O[C@@]2(C)Oc3c(C)c(O)c4c(O)c(c(/C=N/N5CCN(C)CC5)c(O)c4c3C2=O)NC(=O)/C(C)=C\C=C\[C@H](C)[C@H](O)[C@@H](C)[C@@H](O)[C@@H](C)[C@H](OC(C)=O)[C@@H]1C | Mycobacterium avium intracellulare | Serovar 8 |  |  | inhibition | 10 µg/mL | 90%
OCC#CCO | Mycobacterium bovis BCG | 1173P2 | resazurin | 24 h | MIC |  | 125 µg/mL
CNc1ccc2oc(C[C@@H]3OC4(CC[C@@H]3C)O[C@H](C(C)C(=O)c3ccc[nH]3)[C@H](C)C[C@H]4C)nc2c1C(=O)O | Mycobacterium abscessus | L948 | resazurin |  | MIC |  | >20 µg/mL
NCC[C@H](O)C(=O)N[C@@H]1C[C@H](N)[C@@H](O[C@H]2O[C@H](CN)[C@@H](O)[C@H](O)[C@H]2O)[C@H](O)[C@H]1O[C@H]1O[C@H](CO)[C@@H](O)[C@H](N)[C@H]1O | Mycobacterium abscessus | 103 | resazurin |  | MIC90 |  | 24 µM
CC1CN(c2c(F)cc3c(=O)c(C(=O)O)cn(C4CC4)c3c2Br)CCN1 | Mycobacterium bovis | BCG-KD1295 (WILD TYPE) |  |  | MIC |  | 0.058 µg/mL
C(#Cc1ccccc1)c1ccccc1 | Mycobacterium bovis BCG | 1173P2 | resazurin | 48 h | MIC |  | 31.25 µg/mL
NC[C@H]1O[C@H](O[C@H]2[C@H](O)[C@@H](O[C@H]3O[C@H](CO)[C@@H](O)[C@H](N)[C@H]3O)[C@H](N)C[C@@H]2N)[C@H](O)[C@@H](O)[C@@H]1O | Mycobacterium avium complex | Isolate C-54 |  |  | MIC |  | >400 µg/mL
Cc1c(N2CCCC3(C2)OCCO3)c(F)cn2c(=O)c(C(=O)O)cc(C3CC3)c12 | Mycobacterium smegmatis | ATCC114 |  |  | MIC |  | 0.39 µg/mL
COc1cc(Cc2cnc(N)nc2N)cc(OC)c1Br | Mycobacterium ulcerans | Isolate 5155 |  |  | MBC |  | 16 µg/mL
O=C(Nc1ccc(Cl)c(Cl)c1)c1cc(Cl)ccc1OP(=O)(Oc1ccccc1)Oc1ccccc1 | Mycobacterium kansasii | My 235/80 |  | 7 d | MIC |  | 4 µM
CCOc1cc(Cc2cnc(N)nc2N)cc(OCC)c1-n1cccc1 | Mycobacterium ulcerans | Isolate 842 |  |  | MBC |  | 0.5 µg/mL
CC[C@@H](C(=O)[C@@H](C)[C@@H](O)[C@H](C)[C@@H]1O[C@@H]([C@@H](CC)C(=O)O)CC[C@@H]1C)[C@H]1O[C@@]2(C=C[C@@H](O)[C@@]3(CC[C@@](C)([C@H]4CC[C@](O)(CC)[C@H](C)O4)O3)O2)[C@H](C)C[C@@H]1C | Mycobacterium marinum | ATCC BAA-535 | resazurin |  | MIC |  | 10 µg/mL
O=C(O)c1cn(C2CC2)c2c(F)c(N3CCN4CCC3C4)c(F)cc2c1=O | Mycobacterium avium | 101 |  |  | MIC |  | 2 µg/mL
CNCC1CCCN(c2c(F)cn3c(=O)c(C(=O)O)cc(C4CC4)c3c2C)C1.Cl | Mycobacterium smegmatis | ATCC114 |  |  | MIC |  | 0.39 µg/mL
C#CC(C)O | Mycobacterium bovis BCG | 1173P2 | resazurin | 24 h | MIC |  | 125 µg/mL
O=C(Nc1ccc(C(F)(F)F)cc1)c1cc(Br)ccc1OP(=O)(OCc1ccccc1)OCc1ccccc1 | Mycobacterium kansasii | My 6509/96 |  | 14 d | MIC |  | 16 µM
CCN1CCN(c2c(F)cc3c(=O)c(C(=O)O)cn(C4CC4)c3c2OC)CC1 | Mycobacterium bovis | BCG-CX2 (A90V D94N) |  |  | MIC |  | 5.5 µg/mL
O=C1c2cc(Cl)ccc2OP(=O)(c2ccccc2)N1c1ccc(Cl)c(Cl)c1 | Mycobacterium kansasii | My 235/80 |  | 7 d | MIC |  | 8 µM
C#CCCO | Mycobacterium bovis BCG | 1173P2 | resazurin | 24 h | MIC |  | 125 µg/mL
O=C(Nc1ccc(C(F)(F)F)cc1)c1cc(Cl)ccc1OP(=O)(Oc1ccccc1)Oc1ccccc1 | Mycobacterium kansasii | My 6509/96 |  | 14 d | MIC |  | 4 µM
COC[C@@H](N)[C@@H]1CCN(c2c(F)cn3c(=O)c(C(=O)O)cc(C4CC4)c3c2C)C1.Cl | Mycobacterium smegmatis | ATCC114 |  |  | MIC |  | 0.2 µg/mL
O=C(Nc1ccc(Br)cc1)c1cc(Cl)ccc1OP(=O)(Oc1ccccc1)c1ccccc1 | Mycobacterium kansasii | My 235/80 |  | 21 d | MIC |  | 8 µM
CC[C@H]1OC(=O)[C@H](C)[C@@H](O[C@H]2C[C@@](C)(OC)[C@@H](O)[C@H](C)O2)[C@H](C)[C@@H](O[C@@H]2O[C@H](C)C[C@H](N(C)C)[C@H]2O)[C@](C)(OC)C[C@@H](C)C(=O)[C@H](C)[C@@H](O)[C@]1(C)O | Mycobacterium avium | LR114R |  |  | MIC |  | 0.12 µg/mL
O=C(Nc1ccc(C(F)(F)F)cc1)c1cc(Cl)ccc1OP(=O)(OCc1ccccc1)OCc1ccccc1 | Mycobacterium kansasii | My 6509/96 |  | 21 d | MIC |  | 16 µM
CCCc1c2c([nH]c(=O)c1C)C(=O)c1[nH]c(=O)c(C)c(CCC)c1C2=O | Mycobacterium chelonae | ATCC 35752 | resazurin / fluorescence |  | MIC90 |  | >7.5 µg/mL
C#CC(C)(C)O | Mycobacterium bovis BCG | 1173P2 | resazurin | 24 h | MIC |  | 125 µg/mL
O=C(Nc1ccc(Br)cc1)c1cc(Cl)ccc1OP(=O)(OCc1ccccc1)OCc1ccccc1 | Mycobacterium kansasii | My 6509/96 |  | 7 d | MIC |  | 32 µM

For reference, 3 entries again:

{"compound": "COc1cc(Cc2cnc(N)nc2N)cc(OC)c1Br", "organism": "Mycobacterium ulcerans", "strain or isolate": "Isolate 5155", "endpoint": "MBC", "value": "16 µg/mL"}
{"compound": "O=C(Nc1ccc(C(F)(F)F)cc1)c1cc(Cl)ccc1OP(=O)(OCc1ccccc1)OCc1ccccc1", "organism": "Mycobacterium kansasii", "strain or isolate": "My 6509/96", "setting": "21 d", "endpoint": "MIC", "value": "16 µM"}
{"compound": "C#CC(C)O", "organism": "Mycobacterium bovis BCG", "strain or isolate": "1173P2", "read by": "resazurin", "setting": "24 h", "endpoint": "MIC", "value": "125 µg/mL"}